The text below walks through data of PMC3406249 (Hepatology (Baltimore, Md.), 2012).

No end group written: not given here.

The test system of the assay is HCVpp packaged with envelope proteins from major genotypes. The following applies: 12 h.

Broadly, the IC50 is the concentration at which inhibition is half-maximal. The low end stands for greater potency, the high end for weaker potency. On to MANAGLQLLGFILAFLGW [CL58], for which the IC50 lay in the range of 600 to 5000 nM.
